Pooled drug test results. Numbers come from NIAID ChemDB, via PubChem.

All rows: growth or infection tests

Fold resistance: result on the changed form divided by that on wild type. Inhibition is in % at the dose shown (toxicity tests: loss of growth or viability). An empty or dashed field is not shown. Rows are shuffled and stem from different studies. a–b is a range or a potency band. ECn is the concentration giving n% inhibition of infection, replication or growth.

SMILES | cell line | read-out | method | agent | tested at | mutations | strain | result
COC1CCC(n2c(C(=O)N[C@H](C)c3ccccc3)c3n(c2=O)CCN(C(=O)c2ccc(Br)c(Cl)c2)C3)CC1 | HepG2.117 | EC50 | PCR | Hepatitis B virus |  |  |  | >5 µM
CCN1CCC(C(=O)Nc2ccc(Oc3ccccc3F)cc2)CC1 | Huh7 | inhibition | PCR | Hepatitis C virus | 5 µM |  | JFH-1 | ≥40%
O=C(NC1CC2(C1)CC(c1nc3cc(Cl)ccc3o1)C2)C1CN(Cc2ccccc2)S(=O)(=O)C1 | Primary human hepatocytes | EC50 | luminescence | Hepatitis A virus |  |  |  | 4.6 µM
N=c1nc(N)c2ncn([C@@H]3O[C@H](CO)[C@@H](O)[C@H]3O)c2c(N)n1 | 2.2.15 | inhibition |  | Hepatitis B virus | 10 µM |  |  | 0%
CC1CCC(C(=O)N(c2cc(C#CC(C)(C)C)sc2C(=O)O)C2CCC(O)CC2)CC1 | Huh7 | fold resistance | luciferase | Hepatitis C virus |  | A486V | Con1 (gt 1b) | 77.5
COC(=O)[C@H](CCSC)NC(=O)c1ccc(NC[C@@H]([NH3+])CS)cc1-c1ccccc1 | Huh7 | EC50 |  | Hepatitis D virus |  |  |  | <0.5 µM
C[C@H](Oc1ccc(CNC(=O)c2c3n(c(=O)n2-c2ccc(OC4CC4)cc2)CCN(C(=O)c2ccc(Br)c(Cl)c2)C3)c(F)c1)C(N)=O | HepG2.117 | EC50 | PCR | Hepatitis B virus |  |  |  | 0.1–0.5 µM
CC(C)Cc1cc(CN2CCC(C(=O)Nc3ccc(Oc4ccccc4F)cc3)CC2)[nH]n1 | Huh7 | inhibition | PCR | Hepatitis C virus | 15 µM |  | JFH-1 | ≥40%
O=C(O[C@@H]1Cc2c(O)cc(O)cc2O[C@@H]1c1cc(O)c(O)c(O)c1)c1cc(O)c(O)c(O)c1 |  | inhibition | PCR | Hepatitis B virus | 25 µM |  |  | 36.3%
COc1ccc([C@H](C)NC(=O)c2c3n(c(=O)n2-c2ccc(OC)cc2)CCN(C(=O)c2ccc(Br)c(Cl)c2)C3)cc1 | HepG2.117 | EC50 | PCR | Hepatitis B virus |  |  |  | <0.1 µM
O=c1c(O)c(-c2ccc(O)c(O)c2)oc2cc(O)cc(O)c12 | HepG2.2.15 | inhibition | ELISA / antigen | Hepatitis B virus | 30 µM |  |  | 76.4%
COc1cccc(-c2ccccc2NC(=O)C2CCN(Cc3ccc(F)cc3OC)CC2)c1 | Huh7 | inhibition | PCR | Hepatitis C virus | 15 µM |  | JFH-1 | ≥40%
O=C(NCc1ccccc1)c1c2n(c(=O)n1-c1ccc3cn[nH]c3c1)CCN(C(=O)c1ccc(Br)c(Cl)c1)C2 | HepG2.117 | EC50 | PCR | Hepatitis B virus |  |  |  | 0.1–0.5 µM
CC(C)n1cc(CN2CCC(C(=O)Nc3cccc(-c4cc5ccccc5[nH]4)c3)CC2)cn1 | Huh7 | inhibition | PCR | Hepatitis C virus | 15 µM |  | JFH-1 | ≥40%
C[C@H](NC(=O)c1c2n(c(=O)n1-c1ccc(OC3CC3)cc1)CCN(C(=O)c1ccc(Br)c(Cl)c1)C2)c1ccc(OC(F)F)cc1F | HepG2.117 | EC50 | PCR | Hepatitis B virus |  |  |  | 0.1–0.5 µM
Cc1nc(C)c(CN2CCC(C(=O)Nc3cccc(-c4cccc(F)c4)c3)CC2)nc1C | Huh7 | inhibition | PCR | Hepatitis C virus | 5 µM |  | JFH-1 | ≥40%
COc1ccc(-n2c(C(=O)Nc3ccccc3)c3n(c2=O)CCN(C(=O)c2ccc(Cl)c(Cl)c2)C3)cc1 | HepG2.117 | EC50 | PCR | Hepatitis B virus |  |  |  | >5 µM
O=C(N[C@@H](C(=O)N1CCC[C@H]1c1ncc(-c2ccc(-c3ccc(-c4cnc([C@@H]5CCCN5C(=O)[C@H](NC(=O)C5CC5)c5ccccc5)s4)cc3)cc2)s1)c1ccccc1)C1CC1 | Huh7.5 | fold resistance | luciferase / reporter gene | Hepatitis C virus |  | T24A | genotype 2a | 65
O=C(O)c1cc2c(n(C3CC3)c1=O)-c1cc(Cl)c(OCC3CCO3)cc1S(=O)(=O)C2 | Primary human hepatocytes | EC50 | antigen / visual reading / absorbance | Hepatitis A virus |  |  |  | 0.1–0.5 µM

2 of the rows above, restated:

SMILES	cell line	read-out	method	agent	tested at	mutations	strain	result
CC1CCC(C(=O)N(c2cc(C#CC(C)(C)C)sc2C(=O)O)C2CCC(O)CC2)CC1	Huh7	fold resistance	luciferase	Hepatitis C virus		A486V	Con1 (gt 1b)	77.5
COc1ccc(-n2c(C(=O)Nc3ccccc3)c3n(c2=O)CCN(C(=O)c2ccc(Cl)c(Cl)c2)C3)cc1	HepG2.117	EC50	PCR	Hepatitis B virus				>5 µM